Amino acid sequences for entries named in this document (tags omitted). Residues count along the entry.
UniProt Q9NYK1, 27-1049 limits assumed: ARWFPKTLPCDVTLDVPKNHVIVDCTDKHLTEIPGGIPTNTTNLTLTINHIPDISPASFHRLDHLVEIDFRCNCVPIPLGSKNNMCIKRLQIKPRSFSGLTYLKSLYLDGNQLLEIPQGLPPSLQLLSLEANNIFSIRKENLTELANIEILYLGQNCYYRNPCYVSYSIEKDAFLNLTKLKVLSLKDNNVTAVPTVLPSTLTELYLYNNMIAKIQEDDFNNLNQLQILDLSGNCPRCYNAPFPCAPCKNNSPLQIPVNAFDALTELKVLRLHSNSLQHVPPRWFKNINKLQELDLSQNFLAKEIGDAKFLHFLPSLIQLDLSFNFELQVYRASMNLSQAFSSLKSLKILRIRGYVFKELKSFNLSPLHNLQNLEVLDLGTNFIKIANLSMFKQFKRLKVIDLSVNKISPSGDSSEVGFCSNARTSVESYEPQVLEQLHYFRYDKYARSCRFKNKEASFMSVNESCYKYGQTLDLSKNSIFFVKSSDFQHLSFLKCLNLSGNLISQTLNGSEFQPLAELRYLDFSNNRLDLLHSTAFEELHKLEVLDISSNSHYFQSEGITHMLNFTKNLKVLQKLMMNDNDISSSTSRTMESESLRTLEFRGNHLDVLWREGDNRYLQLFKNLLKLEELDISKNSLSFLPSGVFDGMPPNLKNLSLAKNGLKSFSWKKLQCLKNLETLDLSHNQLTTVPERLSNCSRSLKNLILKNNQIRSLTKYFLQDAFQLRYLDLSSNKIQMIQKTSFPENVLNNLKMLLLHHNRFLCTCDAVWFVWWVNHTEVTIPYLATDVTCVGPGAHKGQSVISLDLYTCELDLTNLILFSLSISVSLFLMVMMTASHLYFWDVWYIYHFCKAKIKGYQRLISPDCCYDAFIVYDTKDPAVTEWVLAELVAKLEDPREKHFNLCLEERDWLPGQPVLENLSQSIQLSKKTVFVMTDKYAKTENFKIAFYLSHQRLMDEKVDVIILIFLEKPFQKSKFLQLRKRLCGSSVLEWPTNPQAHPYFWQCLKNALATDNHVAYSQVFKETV

In patent publication US7691877B2, “Pharmaceuticals” (priority 2006, dated 2010):

Biological target: TLR7 receptor (Homo sapiens, UniProt Q9NYK1)
Test: PBL/HCV replicon bioassay
Format: cell-based
Conditions: concentration applied to PBL (24 h) giving 50% reduction of HCV replicon levels (luciferase) after transfer of PBL culture medium to Huh-7 replicon cells (48 h)

SMILES: Cc1cc2c([nH]c(=O)n2Cc2ccc(F)cc2)c(N)n1
- EC50: 0.926 µM
